# Laboratory results from US20030216569A1, “Method of making HIV protease inhibitors” (priority 1993, published 2003).
# Structures were worked out from names or drawings and are uncertain.
# System: HIV-1 isolates IIIB and/or RF in CEM cells
# Experiment: SRI primary anti-HIV screen, MTT assay of inhibition of HIV-induced cell killing in CEM cells
# Type: cell-based
structure (smiles),measurement,value
CC(C)(C)NC(=O)c1ccccc1C[C@@H](O)[C@H](Cc1ccccc1)NC(=O)[C@H](CC(N)=O)NC(=O)c1ccc2ccccc2n1,SRI CEM IC50 ng/mL,(74.8) ng/mL
